Pooled drug test results. Numbers come from NIAID ChemDB, via PubChem.

Shared fields: whole-cell or culture tests; species: Cryptococcus neoformans

Neighbouring rows are from separate reports. Blank or dashed fields: not listed here. ECn is the concentration giving n% inhibition of infection, replication or growth. A number after MIC or MFC names an inhibition level or a share of isolates.

| compound | read by | strain | read-out | result |
|---|---|---|---|---|
| O=Cc1cc(O)ccc1O | broth dilution / turbidity | CBS 132 | EC50 | 0.08 µM |
| C[C@H]1[C@H](O)[C@@H](C)/C=C/C=C/C=C/C=C/C=C/C=C/C=C/[C@H](O[C@@H]2O[C@H](C)[C@@H](O)[C@H](N)[C@@H]2O)C[C@@H]2O[C@](O)(C[C@@H](O)C[C@@H](O)CC[C@H](O)[C@@H](O)C[C@@H](O)CC(=O)O[C@H]1C)C[C@H](O)[C@H]2C(=O)O | broth dilution | ATCC 32264 | MIC100 | 0.25 µg/mL |
| Clc1ccc(-c2c(C(c3ccccc3)n3ccnc3)cnn2-c2ccc(Cl)cc2)cc1 | - | - | MBC | 33.3 µM |
| COC1=CC(=O)c2c(O)cc(C)cc2C1=O | - | - | MFC | 200 µg/mL |
| Clc1ccc(-n2ncc(C(c3ccccc3)n3ccnc3)c2-c2ccccc2Cl)c(Cl)c1 | - | - | MBC | 33.3 µM |
| CCCCNC(=O)n1c(NC(=O)OC)nc2ccccc21 | - | IU8698 | EC90 | 3.8 µg/mL |
| CC[C@@H]1C[C@@]2(CC)O/C(=C\C(=O)OC)[C@@]3(CC)[C@H](CC)[C@]1(C)[C@@]23C | broth dilution | ATCC | MIC80 | 0.41 µM |
| CO[C@@H]1[C@@H](O)[C@H](O[C@@H]2[C@@H](O)[C@H](O[C@H]3[C@H](O)[C@@H](O)[C@H](O[C@H]4[C@H](O[C@H]5CC[C@]6(C)C7=C[C@H](O)[C@]89C(=O)O[C@@](C)(CCCC(C)C)[C@H]8CC[C@@]9(C)[C@@H]7CC[C@H]6C5(C)C)OC[C@@H](O[C@@H]5O[C@H](CO)[C@@H](O)[C@H](O[C@@H]6O[C@H](CO)[C@@H](O)[C@H](OC)[C@H]6O)[C@H]5O)[C@@H]4O)O[C@@H]3C)O[C@H](CO)[C@H]2O)O[C@H](CO)[C@H]1O | - | ATCC32609 | MIC80 | 0.7 µM |
| CN(C)C1=NC(=O)/C(=C/c2ccc(Cl)cc2)S1 | broth dilution | ATCC 32264 | MIC100 | 8 µg/mL |
| CC(C)(C)C1CCC(CN2C3=NC[C@H](C4CCCCC4)N3C[C@@H]2C2CCCCC2)CC1 | - | ATCC 32045 | EC50 | 3.3 µg/mL |
| COc1ccc(C(OC)C(O)c2cc(OC)c(OC)c(OC)c2)cc1 | broth dilution | IP 90526 | MIC | 100 µg/mL |
| CCN1C2=NC[C@H](Cc3ccccc3)N2C[C@H]1CC1CCCCC1 | - | ATCC 32045 | EC50 | 37.9 µg/mL |
| O=C(O)/C=C/c1ccccc1 | broth dilution / turbidity | CBS 132 | EC50 | 0.11 µM |
| COC(=O)Nc1nc2ccc(Sc3ccccc3)cc2[nH]1 | - | IU8698 | EC50 | <0.014 µg/mL |
| O=Cc1cccc(O)c1O | broth dilution / turbidity | CBS 132 | EC50 | 0.03 µM |
| CO[C@@H]1[C@@H](O)[C@H](O[C@@H]2[C@@H](O)[C@H](O[C@H]3[C@H](O)[C@@H](O)[C@H](O[C@H]4[C@H](O[C@H]5CC[C@]6(C)C7=C[C@H](O)[C@]89C(=O)O[C@@](C)(C/C=C/C(C)(C)O)[C@H]8CC[C@@]9(C)[C@@H]7CC[C@H]6C5(C)C)OC[C@@H](O[C@@H]5O[C@H](CO)[C@@H](O)[C@H](O[C@@H]6O[C@H](CO)[C@@H](O)[C@H](OC)[C@H]6O)[C@H]5O)[C@@H]4O)O[C@@H]3C)O[C@H](CO)[C@H]2O)O[C@H](CO)[C@H]1O | - | ATCC32609 | MIC80 | 44.44 µM |
| c1ccc2[nH]c(-c3cscn3)nc2c1 | - | IU8698 | EC50 | <4 µg/mL |
| C[C@@H](c1ncncc1F)[C@](O)(Cn1cncn1)c1ccc(F)cc1F | - | ATCC32609 | MIC80 | 0.04 µM |
| Clc1ccc(-n2ncc(C(c3ccccc3)n3ccnc3)c2-c2ccccc2)c(Cl)c1 | - | - | MBC | 33.3 µM |
| CCN1C2=NC[C@@H](C3CCCCC3)N2C[C@@H]1Cc1ccccc1 | - | ATCC 32045 | EC50 | 34.5 µg/mL |
| CO[C@@H]1[C@@H](O)[C@H](O[C@@H]2[C@@H](O)[C@H](O[C@H]3[C@H](O)[C@@H](O)[C@H](O[C@H]4[C@H](O[C@H]5CC[C@]6(C)C7=C[C@H](O)[C@]89C(=O)O[C@@](C)(CCCC(C)(C)OC(C)=O)[C@H]8CC[C@@]9(C)[C@@H]7CC[C@H]6C5(C)C)OC[C@@H](O[C@@H]5O[C@H](CO)[C@@H](O)[C@H](O[C@@H]6O[C@H](CO)[C@@H](O)[C@H](OC)[C@H]6O)[C@H]5O)[C@@H]4O)O[C@@H]3C)O[C@H](CO)[C@H]2O)O[C@H](CO)[C@H]1O | - | ATCC32609 | MIC80 | 2.7 µM |
| CCN1C2=NC[C@H](Cc3ccccc3)N2C[C@@H]1C1CCCCC1 | - | ATCC 32045 | EC50 | 64.6 µg/mL |
| COc1cc2occ(-c3ccc(O)cc3)c(=O)c2c(OC)c1CC=C(C)C | broth dilution | IP 90526 | MIC | 50 µg/mL |
| CC1=CC(=O)c2c(O)cccc2C1=O | - | - | MFC | 40 µg/mL |
| CC(C)(C)[C@](O)(COc1ccc(Cl)cc1)Cn1cncn1 | - | - | MLC90 | >0.08 µg/mL |
| COc1ccc(/C=C2\SC(N(C)C)=NC2=O)cc1 | broth dilution | ATCC 32264 | MIC100 | >250 µg/mL |
| CN(C/C=C/C#CC(C)(C)C)Cc1cccc2ccccc12 | - | ATCC32609 | MIC80 | 3.06 µM |
| CC(C)(C)C1CCC(CN2C3=NC[C@H](Cc4ccccc4)N3C[C@@H]2Cc2ccccc2)CC1 | - | ATCC 32045 | EC50 | 2.5 µg/mL |

2 of the rows above, restated:

compound | read by | strain | read-out | result
CC1=CC(=O)c2c(O)cccc2C1=O | - | - | MFC | 40 µg/mL
O=Cc1cc(O)ccc1O | broth dilution / turbidity | CBS 132 | EC50 | 0.08 µM